The results in this text go back to patent publication US6706704B2 (priority 2001, dated 2004).

For assay [1], the system named is phrenic nerve activity (D1-dopamine receptor agonism). The experiment in a line: Reversal of fentanyl-induced respiratory depression/apnea by D1-dopamine receptor agonists (PN activity). Particulars: for restoration of three-phase PN respiratory rhythm after fentanyl: doses of 1.5-3.0 mg/kg i.v., pentobarbital, chloralose and decerebrate cats.
Assay [2] concerns D1-dopamine receptors (phrenic nerve activity).
The test system of assay [3] is Aug-E neurons. In words: Voltage clamp measurement of membrane currents in Aug-E neurons after fentanyl. Particulars: doxapram i.v. (1 mg/kg) after fentanyl 20 μg/kg, chloralose-anesthetized cat.
Assay [4] concerns postinspiratory (PI) neurons. The experiment in a line: Extracellular recording of non-bulbospinal postinspiratory (PI) neuron discharges. Particulars: FIG. 8D, chloralose-anesthetized cat; reversal not complete.

Regarding `Oc1cc2c(cc1O)C(c1ccccc1)CNCC2` (racemic), in assay [1], the “restoration of three-phase PN respiratory rhythm after fentanyl” value is “consistently restored the three-phase PN respiratory rhythm”.
For the compound `CCN1CC(CCN2CCOCC2)C(c2ccccc2)(c2ccccc2)C1=O` (stereo not drawn), the “PN discharges after doxapram” value in assay [2] (i.v. 0.5-1.0 mg/kg after fentanyl, R(+)-SCH-23390 and D1 agonist) is reported as “evoked strong PN discharges at the same frequency as control”. Besides, the “effect on PN activity, synaptic drive potentials and currents during fentanyl apnea” value in assay [3] was “reinstated PN activity as well as synaptic drive potentials and currents”.
In the case of `Br.C=CCN1CCc2c(cc(O)c(O)c2Cl)C(c2ccccc2)C1` (racemic) [(±)-chloro-APB, (+/−)6-chloro-7,8-dihydroxy-3-allyl-1-phenyl-2,3,4,5-tetrahydro-1H-3-benzazepine hydrobromide], the “restoration of PN discharges after pretreatment with R(+)-SCH-23390” value in assay [2] (fentanyl apnea, (±)-chloro-APB 1-3 mg/kg) is recorded as “failed to restore PN discharges”. Also, in assay [4], the “PI neuron and PNA discharges after fentanyl” value was “restored rhythmic discharges”. For the same compound, the “restoration of PN discharges during fentanyl apnea” value in assay [1] (1 mg/kg, pentobarbital-anesthetized cat) is recorded as “restored PN discharges”. In addition, the “further effect of increased dose” value in assay [1] (4.5 mg/kg, chloralose-anesthetized cat) was “produced no further change”. Further, in assay [1] (cumulative dose 3 mg/kg after fentanyl 30 μg/kg, chloralose-anesthetized cat), the “restoration of PN discharges after fentanyl apnea” value was “restored inspiratory and postinspiratory PN discharges”. Besides, the “restoration of three-phase PN respiratory rhythm after fentanyl” value in assay [1] is on record as “consistently restored the three-phase PN respiratory rhythm”.
